Anti-infective test results gathered from many reports (values: NIAID ChemDB through PubChem).

All rows: tests in culture; species: Cryptococcus neoformans; endpoint: MIC

Neighbouring rows are from separate reports. An empty or dashed field is not shown.

| SMILES | strain or isolate | method | result |
|---|---|---|---|
| COc1ccc(/C=C2\COc3ccccc3C2=O)cc1OC | 93/V |  | 50 µg/mL |
| C[C@@H]1[C@H](O)[C@@H](C)/C=C/C=C/C=C/C=C/C=C/C=C/C=C/[C@H](O[C@@H]2O[C@H](C)[C@@H](O)[C@H](N)[C@@H]2O)C[C@@H]2O[C@](O)(C[C@@H](O)C[C@@H](O)[C@H](O)CC[C@@H](O)C[C@@H](O)CC(=O)O[C@H]1C)C[C@H](O)[C@H]2C(=O)O | Clinical isolate (IM 031633) | broth dilution | 0.13 µg/mL |
| Oc1cccc(C=Nc2ccccc2O)c1 | C-3-1 | broth dilution | 2.8 µg/mL |
| CCC(C)n1ncn(-c2ccc(N3CCN(c4ccc(OC[C@H]5CO[C@](Cn6cncn6)(c6ccc(Cl)cc6Cl)O5)cc4)CC3)cc2)c1=O | Clinical isolate (IM 042074) | broth dilution | <0.015 µg/mL |
| Oc1ccccc1N=Cc1cccc(O)c1O | ATCC 28957 | broth dilution | 4 µg/mL |
| O=C1/C(=C/c2ccccc2[N+](=O)[O-])CCc2ccccc21 | Farwania |  | 100 µg/mL |
| Oc1ccccc1N=Cc1ccc2c(c1)OCO2 | 5396 | broth dilution | 5.7 µg/mL |
| COc1ccc(/C=C2\CS(=O)c3ccccc3C2=O)cc1 | 25 |  | 50 µg/mL |
| Oc1ccccc1C=Nc1ccccc1O | 5396 | broth dilution | 5.7 µg/mL |
| O=C1/C(=C/c2ccc3c(c2)OCO3)CCc2ccccc21 | 25 |  | 50 µg/mL |
| CCC(C)CC(C)CCCCCCCCC(=O)N[C@H]1C[C@@H](O)[C@H](NCCN)NC(=O)[C@@H]2[C@@H](O)CCN2C(=O)[C@H]([C@H](O)CCN)NC(=O)[C@H]([C@H](O)[C@@H](O)c2ccc(O)cc2)NC(=O)[C@@H]2C[C@@H](O)CN2C(=O)[C@H]([C@@H](C)O)NC1=O | B 32480 | broth dilution | 8 µg/mL |
| O=C1/C(=C/c2ccc(Cl)cc2)CSc2ccccc21 | 93/V |  | 12.5 µg/mL |
| CC(C(O)(Cn1cncn1)c1ccc(F)cc1F)S(C)(=O)=O | B4500 (AZOLE-S) |  | 5 µM |
| O=[N+]([O-])c1ccc(C=Nc2ccccc2O)cc1 | Broth microdilution |  | 11.3 µg/mL |
| CC[C@@H]([C@H](C)O)n1ncn(-c2ccc(N3CCN(c4ccc(OC[C@@H]5CO[C@@](Cn6cncn6)(c6ccc(F)cc6F)C5)cc4)CC3)cc2)c1=O | 89-610 |  | 0.25 µg/mL |

A second listing of 2 rows from above:

SMILES,strain or isolate,method,result
COc1ccc(/C=C2\COc3ccccc3C2=O)cc1OC,93/V,,50 µg/mL
CC[C@@H]([C@H](C)O)n1ncn(-c2ccc(N3CCN(c4ccc(OC[C@@H]5CO[C@@](Cn6cncn6)(c6ccc(F)cc6F)C5)cc4)CC3)cc2)c1=O,89-610,,0.25 µg/mL